Results: the supplement of paper PMC3578754
Fold change is the IC50 on the isolate divided by the IC50 on a reference virus; 1 = unchanged, higher = more resistant. Changes are given against the subtype B consensus. No active / inactive call. The values were gathered from many studies (numbered anew) with different assays, which the source does not name. Most viruses are clinical isolates; some are laboratory strains or clones with known resistance changes. Isolates with mixed residues are left out; stretches that were not sequenced show no change. Round top values that many isolates share are read here as limits; other very high values and 0.1 may be limits too.

Tests used:
Test in all cases: fold change of IC50 against reference virus; higher = more resistant
delavirdine = compound: CC(C)Nc1cccnc1N1CCN(C(=O)c2cc3cc(NS(C)(=O)=O)ccc3[nH]2)CC1 [delavirdine]
Experimental: (§1)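 Cell-culture drug susceptibility tests of virus bearing the reverse transcriptase of each isolate, gathered from many studies.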

stavudine = compound: Cc1cn([C@H]2C=C[C@@H](CO)O2)c(=O)[nH]c1=O [stavudine]
Experimental: as §1

didanosine = compound: O=c1[nH]cnc2c1ncn2[C@H]1CC[C@@H](CO)O1 [didanosine]
Experimental: as §1

tenofovir = compound: C[C@H](Cn1cnc2c(N)ncnc21)OCP(=O)(O)O [tenofovir]
Experimental: as §1

zidovudine = compound: Cc1cn([C@H]2C[C@H](N=[N+]=[N-])[C@@H](CO)O2)c(=O)[nH]c1=O [zidovudine]
Experimental: as §1

zalcitabine = compound: Nc1ccn([C@H]2CC[C@@H](CO)O2)c(=O)n1 [zalcitabine]
Experimental: as §1

efavirenz = compound: O=C1Nc2ccc(Cl)cc2[C@@](C#CC2CC2)(C(F)(F)F)O1 [efavirenz]
Experimental: as §1

nevirapine = compound: Cc1ccnc2c1NC(=O)c1cccnc1N2C1CC1 [nevirapine]
Experimental: as §1

abacavir = compound: Nc1nc(NC2CC2)c2ncn([C@H]3C=C[C@@H](CO)C3)c2n1 [abacavir]
Experimental: as §1

Test System | fold change of IC50 against reference virus (delavirdine) | fold change of IC50 against reference virus (stavudine) | fold change of IC50 against reference virus (didanosine) | fold change of IC50 against reference virus (tenofovir) | fold change of IC50 against reference virus (zidovudine) | fold change of IC50 against reference virus (zalcitabine) | fold change of IC50 against reference virus (efavirenz) | fold change of IC50 against reference virus (nevirapine) | fold change of IC50 against reference virus (abacavir)
HIV-1 isolate 1205 (reverse transcriptase changes: R83K K103N I135V E169D Y181C T200A Q207E T215Y H221Y V245T, study 121) | ≥ 250 | 1.8 | 1.5 | 2 | 38 | 1.3 | 132 | ≥ 400 | 2.9
HIV-1 isolate 1359 (reverse transcriptase changes: A98S K122E Q207E, study 121) | 2.1 | 1 | 1 | 1.2 | 1.1 | 1.1 | 1.2 | 1.6 | 1.1
HIV-1 isolate 1355 (reverse transcriptase changes: T39A M41L K43A E44D D67N T69D V118I K122E I142V M184V Q207E L210W R211K T215Y K287R I293V E297A, study 121) | 0.4 | 3.9 | 2.4 | 2.3 | 61 | 3.2 | 0.5 | 0.7 | 7.7
HIV-1 isolate 816 (reverse transcriptase changes: K20R E28K K32E V35R M41L E44D D67N K103N D123E I135M P157A K166R D177E M184V G196E T200A L210W R211K T215Y V245E E297K, study 15) | 21 | 3.2 | 1.8 | 4.3 | – | 3.2 | 28 | 76 | 5.9
HIV-1 isolate 1429 (reverse transcriptase changes: M41L D67N R83K K103N M184V Q207H L210W R211K T215Y A272P K311R, study 121) | 9.2 | 2.2 | 1.7 | 1.6 | 30 | 2 | 9.6 | 26 | 6
HIV-1 isolate 16 (reverse transcriptase changes: A62V V75I F77L F116Y K122E Q151M M184V F214L A272P K277R, study 138) | 3 | 10.9 | 19.7 | 0.9 | 244 | 45.2 | 1.3 | 1.3 | 15.1
HIV-1 isolate 1150 (reverse transcriptase changes: M41L E44D D67N K122E M184V L210W F214L T215Y K219E A272P K277R, study 138) | 0.1 | 1.3 | 1.2 | 0.6 | 1.7 | 1.3 | 0.2 | 0.1 | 2.5
HIV-1 isolate 605 (reverse transcriptase changes: M41L K43N E44D D67N T69D A98S K103N V118I K122E I135V E138Q S162C G196E E203K Q207E H208Y L210W R211K T215Y Q278H T286A P294S, study 121) | 9.2 | 7.1 | 2.4 | 6.1 | 2400 | 2.2 | 5.6 | 29 | 7.3
HIV-1 isolate 776 (reverse transcriptase changes: D67N T69D K70R V106A K122E F214L T215F K219Q F227L A272P K277R, study 138) | 15.3 | 3.3 | 1.7 | 4.7 | 2400 | 1.4 | 201 | ≥ 400 | 4.1
HIV-1 isolate 1245 (reverse transcriptase changes: M41L Q85R V90I K103N I135V T139R Y181C M184V G196E T200A T215Y, study 121) | ≥ 250 | 0.9 | 0.7 | 0.8 | 1.8 | 1 | 84 | ≥ 400 | 1.5
HIV-1 isolate 1314 (reverse transcriptase changes: M41L D67N T69D L74V L100I K103N M184V T215Y, study 118) | 180 | 1.3 | 2.5 | 0.6 | 1.3 | 1.9 | 180 | 98 | 5.5
HIV-1 isolate 616 (reverse transcriptase changes: A98S K103N K122E M184V Q207E T215Y E297K, study 121) | 11 | 1.3 | 1.4 | 0.6 | 1.1 | 2.2 | 10 | 24 | 3.7
HIV-1 isolate 440 (reverse transcriptase changes: P4S M41L A98G K122E D123N Y181C M184V G196E I202V L210W R211K T215Y L228R V245K A272P E297K, study 15) | 1 | 1.7 | 1.6 | 0.9 | 11 | 1.7 | 1.4 | 7.3 | 4.5
HIV-1 isolate 831 (reverse transcriptase changes: M41L L74V K102Q D123E Y181C I202V R211K T215Y A272P K277R T286A, study 121) | 6.4 | 1.5 | 1.6 | 0.7 | 1.6 | 1.3 | 0.8 | 77 | 2.5
HIV-1 isolate 826 (reverse transcriptase changes: V35I M41L K43Q A62V D67N V75I E79D R83K K122E M184V G196E Q197K L210W T215Y D218E K223Q A272P K277R, study 121) | 0.1 | 2.5 | 1.7 | 0.9 | 7.1 | 2.1 | 0.1 | 0.3 | 4.9
HIV-1 isolate 882 (reverse transcriptase changes: V21I T139R M184V T200A Q207E R211K K238N A272P P294T E297K, study 12) | 19 | 0.7 | 1.7 | 0.7 | 0.9 | 2.1 | 4 | 34 | 2.6
HIV-1 isolate 1137 (reverse transcriptase changes: T27S V60I D67N T69N K70R K103S I135T Y188H G190A T215F D218E K219E E248Q K249Q A288T P294L, study 15) | 7.4 | 2.1 | 1.3 | 4 | 677 | 2.1 | 800 | 800 | 3.1
HIV-1 isolate 602 (reverse transcriptase changes: M41L D67N V75M K122E L210W F214L T215Y A272P K277R, study 138) | 0.3 | 2.3 | 1.1 | 2.5 | 241 | 0.9 | 0.3 | 0.5 | 2.3
HIV-1 isolate 1416 (reverse transcriptase changes: K32E V35I K49R A62V V75I F77L F116Y I135V Q151M S162C E169D Q207E R211K F214L A272P E291G I293V, study 121) | 0.6 | 11 | 11 | 1.9 | 55 | 17 | 0.4 | 0.4 | 7.1
HIV-1 isolate 1238 (reverse transcriptase changes: D67N K70R L74V A98G K103N Y181C M184V K219Q, study 15) | 200 | 1.5 | 2.1 | 0.6 | 1.2 | 1.8 | 32 | 200 | 7
HIV-1 isolate 246 (reverse transcriptase changes: P1L D67G S68G L74V Y115F D123E I135T I142V D177E M184V T200A T215F K219E V245E E297R, study 15) | 1.3 | 0.8 | 1.9 | 0.6 | 2.4 | 0.8 | 0.9 | 0.9 | 21
HIV-1 isolate 540 (reverse transcriptase changes: M41L K49R K101P D123E Q174K E203K Q207E L210W R211K T215Y V241L A272P T286A, study 12) | 24 | 2.3 | 1.3 | 3.6 | 222 | 1.1 | 41 | 435 | 3.3
HIV-1 isolate 987 (reverse transcriptase changes: A62V S68G T69K K70G V75I F77L Y115F F116Y Q151M I178M M184V R211K K277R I293V, study 121) | 2.3 | 11 | 23 | 2.4 | 261 | 47 | 0.9 | 1 | 20
HIV-1 isolate 493 (reverse transcriptase changes: V35I M41L K43Q V75A A98S K101S K102R D121Y K122E I135T V179E Y181C M184V T200A L210W T215Y K223Q L228R V245M A272P K275R K277R P294T, study 121) | 60 | 2.5 | 1.8 | 1.3 | 11 | 2.3 | 15 | ≥ 400 | 3.4
HIV-1 isolate 1462 (reverse transcriptase changes: L74V K122E F214L A272P K277R M357T A376T A400T N447S D460N S468T S519N, study 63) | – | 1.1 | 1.5 | 0.6 | 0.4 | 1.6 | – | – | 2.1
HIV-1 isolate 432 (reverse transcriptase changes: Y115F K122E F214L A272P K277R M357T A376T A400T N447S D460N S468T S519N, study 63) | – | 0.8 | 0.8 | 1.3 | 0.9 | 0.6 | – | – | 2.8
HIV-1 isolate 1149 (reverse transcriptase changes: K65R L74V K122E M184V F214L A272P K277R M357T A376T A400T N447S D460N S468T S519N, study 63) | – | 1.2 | 6.7 | 0.9 | 0.3 | 4.4 | – | – | 12
HIV-1 isolate 1001 (reverse transcriptase changes: K65R K122E F214L A272P K277R M357T A376T A400T N447S D460N S468T S519N, study 63) | – | 1.8 | 2.1 | 2.1 | 0.5 | 2.6 | – | – | 3
HIV-1 isolate 1142 (reverse transcriptase changes: Y115F K122E M184V F214L A272P K277R M357T A376T A400T N447S D460N S468T S519N, study 63) | – | 0.9 | 2 | 0.9 | 0.7 | 2 | – | – | 9.8
